Measured values published in patent US10087404B2, “Biological corrosion inhibitor for metals” (KURARAY CO., LTD., priority 2014, dated 2018).

System: activated sludge
Test: Biodegradability test (OECD test guideline 301C, JIS K 6950) with activated sludge
Conditions: for biodegradation rate in 28 days: 25° C., activated sludge 30 ppm; for degradability determination: 28 days
[1] = high concentration group (100 ppm)
[2] = low concentration group (30 ppm)

CC(CC=O)CC=O [3-methylglutaraldehyde]
biodegradation rate in 28 days [1]: 64.8% | degradability determination [1]: highly degradable (When the biodegradation rate was 60% or more, the substance was determined as a highly degradable substance) | biodegradation rate in 28 days [2]: 97.2% | degradability determination [2]: highly degradable (When the biodegradation rate was 60% or more, the substance was determined as a highly degradable substance)

O=CCCCC=O [glutaraldehyde]
biodegradation rate in 28 days [1]: 52.6% | degradability determination [1]: partially biodegradable (hardly degradable) | biodegradation rate in 28 days [2]: 78.0% | degradability determination [2]: highly degradable (When the biodegradation rate was 60% or more, the substance was determined as a highly degradable substance)
